Anti-infective test results gathered from many reports (values: NIAID ChemDB through PubChem).

Shared fields: tests in culture; species: HIV-1; endpoint: fold resistance

Blank or dashed fields: not listed here. Neighbouring rows are from separate reports. Fold resistance has wild type as its base.

C/C=C\COc1cc(NC(=S)OC(C)C)ccc1Cl ; changes: RT-V106A ; cells: CEM ; read by: syncytia ; value: 150
Cc1ccsc1C(=O)Nc1ccc(Cl)c(/C=N/OC(C)(C)C)c1 ; changes: RT-L100I ; cells: CEM ; read by: syncytia ; value: 20.2
Cc1cc(S(N)(=O)=O)ccc1NC(=O)COc1ccc(Cl)cc1C(=O)c1cccc(C#N)c1 ; changes: RT-K103N V108I ; strain or isolate: HXB2 ; cells: HeLa + HELA CD4+ ; read by: β-galactosidase ; value: ~1
C/C=C/COc1cc(NC(=S)OC(C)C)ccc1Cl ; changes: RT-E138K ; cells: CEM ; read by: syncytia ; value: 2.5
N#C[C@]1(CO)O[C@@H](n2cnc3c(=O)[nH]cnc32)C[C@@H]1O ; changes: RT-M184V ; strain or isolate: 3TC-resistant (RT M184V) ; cells: MAGI ; read by: β-galactosidase ; value: 25
C=CCOc1cc(NC(=S)OC(C)C)ccc1C#N ; changes: RT-L100I ; cells: CEM ; read by: syncytia ; value: ≥20
C=CCO/N=C/c1cc(NC(=S)c2ccoc2C)ccc1Cl ; changes: RT-A98G ; strain or isolate: NL4-3 ; cells: CEM + CEM-SS ; read by: cytopathic effect / XTT ; value: 57.1
CC(C)=CCOc1cc(NC(=S)c2ccoc2C)ccc1Cl ; changes: RT-Y181C ; strain or isolate: UC781-R (RT-Y181C) ; cells: CEM + CEM-SS ; read by: cytopathic effect / XTT ; value: 111
CC(C)COC(=O)c1cc(NC(=S)OC(C)C)ccc1Cl ; changes: RT-E138K ; cells: CEM ; read by: syncytia ; value: 55.6
CC1=C(C(=S)Nc2ccc(Cl)c(C=NOC(C)(C)C)c2)CCCO1 ; changes: RT-K103N ; cells: CEM ; read by: syncytia ; value: 6.2
CCOCn1c(Cc2cc(Cl)cc(Cl)c2)c(CC)c(=O)[nH]c1=O ; changes: RT-K103N Y181C ; strain or isolate: NNRTI-resistant (RT K103N Y181C) A17 ; cells: MT-4 ; read by: cytopathic effect / MTT ; value: >250
Cc1ccsc1C(=O)Nc1ccc(Cl)c(C(=O)OC2CCCCC2)c1 ; changes: RT-V106A ; cells: CEM ; read by: syncytia ; value: 36.4
CC(=O)COc1cc(NC(=S)OC(C)C)ccc1Cl ; changes: RT-Y181C ; cells: CEM ; read by: syncytia ; value: 15
C=C(C)[C@@H]1CC[C@]2(C(=O)NCCCCCCCC(=O)N[C@@H](CC(C)C)[C@@H](O)CC(=O)O)CC[C@]3(C)[C@H](CC[C@@H]4[C@@]5(C)CC[C@H](O)C(C)(C)[C@@H]5CC[C@]43C)[C@@H]12 ; changes: GP41-E109D A109D ; strain or isolate: LAI ; cells: HeLa P4 + HeLa ; read by: syncytia ; value: ~1
CCCSC(=Nc1ccc(Cl)c(C(=O)OC(C)C)c1)OC(C)C ; changes: RT-Y181C ; cells: CEM ; read by: syncytia ; value: >15.3
CCc1c(Cc2cc(Cl)cc(Cl)c2)n(COC2CCc3ccccc32)c(=O)[nH]c1=O ; changes: RT-K103N Y181C ; strain or isolate: NNRTI-resistant (RT K103N Y181C) A17 ; cells: MT-4 ; read by: cytopathic effect / MTT ; value: 200
CC(C)OC(=O)c1cc(NC(=S)OC(C)C)ccc1Cl ; changes: RT-E138K ; cells: CEM ; read by: syncytia ; value: 44.1
CC(C)=CCOc1cc(NC(=S)c2ccsc2C)ccc1Cl ; changes: RT-L100I ; strain or isolate: Oxathiin carboxanilide-resistant RT L100I ; cells: CEM + CEM-SS ; read by: cytopathic effect / XTT ; value: 37.5
Cc1sccc1C(=S)Nc1ccc(Cl)c(OCC=C(Cl)Cl)c1 ; changes: RT-V106A ; strain or isolate: Nevirapine-resistant isolate (RT V106A) ; cells: CEM ; read by: syncytia ; value: 9.29
CC=CCOc1cc(NC(=S)c2ccoc2C)ccc1OC ; changes: RT-Y181C ; strain or isolate: NL4-3 ; cells: CEM + CEM-SS ; read by: cytopathic effect / XTT ; value: 46.7
CCc1c(Cc2cc(Cl)cc(Cl)c2)n(COC/C(C)=C/c2ccccc2)c(=O)[nH]c1=O ; changes: RT-K103N Y181C ; strain or isolate: NNRTI-resistant (RT K103N Y181C) A17 ; cells: MT-4 ; read by: cytopathic effect / MTT ; value: >333
Cc1ccccc1C(=S)Nc1ccc(Cl)c(C(=O)OC(C)C)c1 ; changes: RT-Y181C ; cells: CEM ; read by: syncytia ; value: 29.2
Cc1cc(S(N)(=O)=O)ccc1NC(=O)COc1ccc(Cl)cc1C(=O)c1cc(F)cc(F)c1 ; changes: RT-Y181C ; strain or isolate: HXB2 ; cells: HeLa + HELA CD4+ ; read by: β-galactosidase ; value: ~1
CC(C)OC(=O)c1cc(NC(=S)OC(C)(C)C)ccc1Cl ; changes: RT-V106A ; cells: CEM ; read by: syncytia ; value: 1.42
Cc1ccsc1C(=S)Nc1ccc(Cl)c(C(=O)OC2CCCCC2)c1 ; changes: RT-Y181C ; cells: CEM ; read by: syncytia ; value: 3.87
C#CCOC(=O)c1cc(NC(=S)OC(C)C)ccc1Cl ; changes: RT-E138K ; cells: CEM ; read by: syncytia ; value: 20.7
COc1ccc(NC(=O)c2ccoc2C)cc1OCC=C(Cl)Cl ; changes: RT-K103N ; strain or isolate: TIBO R82913-resistant (RT K103N) ; cells: CEM ; read by: syncytia ; value: 40
CCCCCCCCCC[N+](C)(C)CCCNCc1c(O)cc2c(c1O)-c1cc(ccc1O)[C@H]1NC(=O)[C@@H]3NC(=O)C4NC(=O)[C@@H](Cc5ccc(c(Cl)c5)Oc5cc3cc(c5O)Oc3ccc(cc3Cl)[C@@H](O)[C@H](NC1=O)C(=O)N[C@@H]2C(=O)O)NC(=O)[C@H](N)c1ccc(O)c(c1)Oc1cc(O)cc4c1 ; changes: RT-Y188H ; cells: CEM ; read by: syncytia ; value: 2.14
Cc1occc1C(=S)Nc1ccc(Cl)c(C(=O)OCC(C)C)c1 ; changes: RT-T139I ; strain or isolate: CALO(RT-T139I) ; cells: CEM + CEM-SS ; read by: cytopathic effect / XTT ; value: 2.86
C/C=C/COc1cc(NC(=S)c2ccn(C)c2C)ccc1Cl ; changes: RT-Y181C ; cells: CEM ; read by: syncytia ; value: 19
C#CCOc1cc(NC(=S)OC(C)C)ccc1Cl ; changes: RT-E138K ; cells: CEM ; read by: syncytia ; value: 8.75
Cc1ccoc1C(=S)Nc1ccc(Cl)c(C(=O)OC(C)C)c1 ; changes: RT-E138K ; cells: CEM ; read by: syncytia ; value: 38.7
CCc1c(Cc2cc(Cl)cc(Cl)c2)n(COCC=C(C)C)c(=O)[nH]c1=O ; changes: RT-Y181C ; strain or isolate: NNRTI-resistant (RT Y181C) N119 ; cells: MT-4 ; read by: cytopathic effect / MTT ; value: >200
Cn1cccc1C(=S)Nc1ccc(Cl)c(/C=N/OC(C)(C)C)c1 ; changes: RT-E138K ; cells: CEM ; read by: syncytia ; value: 4.49
C=C(C)COCn1c(Cc2cc(Cl)cc(Cl)c2)c(CC)c(=O)[nH]c1=O ; changes: RT-K103N Y181C ; strain or isolate: NNRTI-resistant (RT K103N Y181C) A17 ; cells: MT-4 ; read by: cytopathic effect / MTT ; value: >83
CCCCC(CC)COC(=O)c1cc(NC(=S)OC(C)C)ccc1Cl ; changes: RT-Y181C ; cells: CEM ; read by: syncytia ; value: 81.4
Cc1occc1C(=S)Nc1ccc(Cl)c(OCC=C(Cl)Cl)c1 ; changes: RT-L100I ; strain or isolate: TIBO R82150-resistant (RT L100I) ; cells: CEM ; read by: syncytia ; value: 16.5
Cc1occc1C(=S)Nc1ccc(Cl)c(OC(=O)OC(C)C)c1 ; changes: RT-Y188L ; cells: CEM ; read by: syncytia ; value: >5.5
Cc1cn([C@H]2C=C[C@@H](CO)O2)c(=O)[nH]c1=O ; changes: RT-A62V V75I F77C F116Y Q151M ; strain or isolate: XM-Q151M ; cells: MT-4 ; read by: p24 ; value: 73
Cc1occc1C(=S)Nc1ccc(Cl)c(/C=N/OCc2ccccc2)c1 ; changes: RT-E138K ; cells: CEM ; read by: syncytia ; value: ≥3.33
CC(C)OC(=O)c1cc(NC(=S)OCC2(C)COC2)ccc1Cl ; changes: RT-Y181C ; cells: CEM ; read by: syncytia ; value: >1.07
CC(C)OC(=O)c1cc(NC(=S)c2ccsc2)ccc1Cl ; changes: RT-E138K ; cells: CEM ; read by: syncytia ; value: 10.8
COc1ccc(NC(=S)C2=C(C)OCCS2)cc1OCC=C(Cl)Cl ; changes: RT-E138K ; strain or isolate: TSAO-m3T-resistant (RT E138K) ; cells: CEM ; read by: syncytia ; value: 13
Nc1nc(=O)n([C@H]2C=C[C@@H](CO)O2)cc1F ; changes: RT-T69SSS L210W T215Y ; strain or isolate: XM-T69SSS ; cells: MT-4 ; read by: p24 ; value: 5.8
CCCOC(=S)Nc1ccc(Cl)c(C(=O)OC(C)C)c1 ; changes: RT-Y181C ; cells: CEM ; read by: syncytia ; value: 110
CC(C)OC(=O)c1cc(NC(=S)c2cccs2)ccc1Cl ; changes: RT-V106A ; cells: CEM ; read by: syncytia ; value: 60.7
Cc1cc(S(N)(=O)=O)ccc1NC(=O)COc1ccc(Cl)cc1C(=O)c1cc(Cl)cc(C#N)c1 ; changes: RT-V108I ; strain or isolate: HXB2 ; cells: HeLa + HELA CD4+ ; read by: β-galactosidase ; value: ~1
Cc1occc1C(=S)Nc1ccc(Cl)c(/C=N/OC(C)(C)C)c1 ; changes: RT-L74V ; strain or isolate: NL4-3 ; cells: CEM + CEM-SS ; read by: cytopathic effect / XTT ; value: 0.875
CC(C)(C)OC(=O)c1cc(NC(=S)OC(C)(C)C)ccc1Cl ; changes: RT-Y181C ; cells: CEM ; read by: syncytia ; value: >15.4
Cc1occc1C(=S)Nc1ccc(Cl)c(SCC=C(Cl)Cl)c1 ; changes: RT-K103N ; strain or isolate: TIBO R82913-resistant (RT K103N) ; cells: CEM ; read by: syncytia ; value: 16
Cc1occc1C(=S)Nc1ccc(Cl)c(C(=O)OC(C)C2CC2)c1 ; changes: RT-L100I ; cells: CEM ; read by: syncytia ; value: 70.8
CC1=C(C(=O)Nc2ccc(Cl)c(OCC=C(Cl)Cl)c2)SCCO1 ; changes: RT-Y181C ; strain or isolate: Pyridone-resistant (RT Y181C) ; cells: CEM ; read by: syncytia ; value: 1.67
Cc1occc1C(=S)Nc1ccc(Cl)c(C(=O)OC(C)C)c1 ; changes: RT-L74V ; strain or isolate: NL4-3 ; cells: CEM + CEM-SS ; read by: cytopathic effect / XTT ; value: 1
CC(C)OC(=O)Oc1cc(NC(=S)OC(C)C)ccc1Cl ; changes: RT-V106A ; cells: CEM ; read by: syncytia ; value: 8.76
CC(C)=CCOc1cc(NC(=S)c2ccsc2C)ccc1Cl ; changes: RT-Y188L ; cells: CEM ; read by: syncytia ; value: 211
CCCCCCCCCCCCCCCCOCCCOP(=O)(O)CO[C@H](CO)Cn1cnc2c(N)ncnc21 ; changes: RT-D67N K70R T215Y K219Q ; strain or isolate: 4xAZT ; cells: MT-2 ; read by: p24 ; value: 0.7
O=C(Nc1ccc(Cl)c(C(=O)OC2CCCCC2)c1)c1ccccc1F ; changes: RT-L100I ; cells: CEM ; read by: syncytia ; value: ≥16.9
Cc1cc(S(N)(=O)=O)ccc1NC(=O)COc1ccc(Cl)cc1C(=O)c1cc(F)cc(C#N)c1 ; changes: RT-K103N ; strain or isolate: HXB2 ; cells: HeLa + HELA CD4+ ; read by: β-galactosidase ; value: ~1
Cc1occc1C(=O)Nc1ccc(Cl)c(/C=N/N2CCCC2)c1 ; changes: RT-Y188L ; strain or isolate: HEPT-resistant (RT Y188L) ; cells: CEM ; read by: syncytia ; value: <6.15
CC(C)OC(=O)c1cc(NC(=S)c2ccccc2N)ccc1Cl ; changes: RT-Y181C ; cells: CEM ; read by: syncytia ; value: 100
CCC(CC)COC(=O)c1cc(NC(=S)OC(C)C)ccc1Cl ; changes: RT-V106A ; cells: CEM ; read by: syncytia ; value: 28.3
Cc1occc1C(=S)Nc1ccc(Cl)c(OCCC(C)C)c1 ; changes: RT-K103N ; cells: CEM ; read by: syncytia ; value: 21.4
CC(C)O/N=C/c1cc(NC(=S)OC(C)C)ccc1Cl ; changes: RT-E138K ; cells: CEM ; read by: syncytia ; value: 7
Cc1ccsc1C(=S)Nc1ccc(Cl)c(C(=O)OC(C)C)c1 ; changes: RT-V106A ; cells: CEM ; read by: syncytia ; value: 50
CC(C)OC(=S)Nc1ccc(Cl)c(COC(C)(C)C)c1 ; changes: RT-E138K ; cells: CEM ; read by: syncytia ; value: ≥2.22
CC(C)OC(=O)c1cc(NC(=S)c2ccco2)ccc1Cl ; changes: RT-L100I ; cells: CEM ; read by: syncytia ; value: 12.1
CC1=C(C(=O)Nc2ccc(Cl)c(C(=O)OC(C)C)c2)SCCO1 ; changes: RT-E138K ; cells: CEM ; read by: syncytia ; value: ≥1330

The first 7 rows once more:

compound,changes,strain or isolate,cells,read by,value
C/C=C\COc1cc(NC(=S)OC(C)C)ccc1Cl,RT-V106A,-,CEM,syncytia,150
Cc1ccsc1C(=O)Nc1ccc(Cl)c(/C=N/OC(C)(C)C)c1,RT-L100I,-,CEM,syncytia,20.2
Cc1cc(S(N)(=O)=O)ccc1NC(=O)COc1ccc(Cl)cc1C(=O)c1cccc(C#N)c1,RT-K103N V108I,HXB2,HeLa + HELA CD4+,β-galactosidase,~1
C/C=C/COc1cc(NC(=S)OC(C)C)ccc1Cl,RT-E138K,-,CEM,syncytia,2.5
N#C[C@]1(CO)O[C@@H](n2cnc3c(=O)[nH]cnc32)C[C@@H]1O,RT-M184V,3TC-resistant (RT M184V),MAGI,β-galactosidase,25
C=CCOc1cc(NC(=S)OC(C)C)ccc1C#N,RT-L100I,-,CEM,syncytia,≥20
C=CCO/N=C/c1cc(NC(=S)c2ccoc2C)ccc1Cl,RT-A98G,NL4-3,CEM + CEM-SS,cytopathic effect / XTT,57.1